Test results: publication PMC8699537, “In Vitro Anti-SARS-CoV-2 Activity of Selected Metal Compounds and Potential Molecular Basis for Their Actions Based on Computational Study” (Biomolecules, 2021)

Tested on: SARS-CoV-2
Assay type: cell-based

Structure (SMILES) | Selectivity Index
[Cl-].[Cl-].[Cl-].[Cl-].[Ru+3].c1ccc2[nH][nH+]cc2c1.c1ccc2[nH]ncc2c1.c1ccc2[nH]ncc2c1 [KP1019] | 6.8
[Cl][Sb]([Cl])[Cl] [SbCl3, antimony trichloride] | 6.4

Which two values form the index is not stated here.
